Data set [1] deals with T1, DndB (Salmonella enterica serovar Cerro 87) (UniProt E2D676).
T1 sequence: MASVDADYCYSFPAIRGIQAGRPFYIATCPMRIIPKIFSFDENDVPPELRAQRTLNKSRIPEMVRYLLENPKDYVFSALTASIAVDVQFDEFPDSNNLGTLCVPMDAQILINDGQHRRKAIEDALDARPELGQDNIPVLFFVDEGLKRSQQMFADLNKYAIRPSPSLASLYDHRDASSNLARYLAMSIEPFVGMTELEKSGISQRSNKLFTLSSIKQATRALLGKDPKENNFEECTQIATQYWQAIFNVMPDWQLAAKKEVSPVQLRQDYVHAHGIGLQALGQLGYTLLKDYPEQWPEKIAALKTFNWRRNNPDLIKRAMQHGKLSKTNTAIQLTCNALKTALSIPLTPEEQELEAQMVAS
Put plainly: EMSA. The settings on record: 0-300 nM DndB; EMSA: 20 mM Tris-HCl pH 8.0, 50 mM KCl, 10 mM MgCl2, 5 mM EDTA, 10 mM DTT, 5% glycerol, room temperature 30 min, 20 nM DNA; recombinant protein; protein details: NusA-His tag N-terminal, removed by TEV; probe letters rebuilt from the primers and the genome.

Data set [2] concerns the target T1, DndB (Salmonella enterica serovar Cerro 87). Put plainly: DNase I footprinting. The following applies: two protected regions BB1 and BB2; footprinting: 25 C 30 min, 200 ng probe in 40 uL; recombinant protein; protein details: NusA-His tag N-terminal, removed by TEV; probe letters rebuilt from the primers and the genome; part of a longer molecule.

The exact form of at least one protein or probe is not confirmed. For part of these data: No signal at the amounts used counts as a negative.

“AGTGCTCGTGGCTGCTGTGTTATTATTTTAACCTCCGGGGAGAATGACGCTGATACCTCCTGTCGTTAACGGTAAGGGGATGTTCGATATGATGATTATCTCAACATCACCCGAACGTGTAATAAACTGTATCCAAATTAACTCCAGGCA (double strand) [B2]”: in data set [1], the binding result is on record as “no binding”.
Same read-out and setting: as for “GCATCTGAGCCGTTTGGCGGGGGCATGAATGCGAAACTGAATGCGTAACACCACCACGTTCATTGGTTCTGCGGTTGTTGCGCTGGACAGATTGGTGAGGCCAGGCAGCTGTTTGAAGGTTATGGTTCTATGTCTCTATTGACTAGATGGTATTGCAGGTGCTTTTCGGTCTGAAGAAAAAGCATAAACCTATGATGTTCGAATTGGCGTTGCTGCGTGGTTACCCTGT (double strand) [B3]”, the entry is “no binding”.
Regarding “GCTGTAATCCGTGTAAAAATCGAATGAATTGAGTTACGTGATATTTTACGTAATGCTTAATAAAATTTATAGTTTTTTTTATGTTTTACGTGATTTTTTGCGTACAGGGTTCCATATCTGAGA (double strand) [B1 footprint probe]”, the binding result in data set [2] was “binds”.

For the origin of these results see PMC4507180.
